This data set deals with promastigotes of Leishmania tropica kwh 23. As to the kind of experiment: Antileishmanial activity (MTT assay). It is filed as cell-based. Conditions: antileishmanial LC50. The method, then:
Antileishmanial activity against the promastigotes of Leishmania tropica kwh 23 was evaluated by a quantitative colorimetric assay using 3-(4,5-dimethylthiazol-2-yl)-2, 5-diphenyl tetrazolium bromide (MTT) with minor modifications. […] […] Negative control wells contained 1% DMSO in PBS. All samples were run in triplicate. Afterwards, plates were incubated for 4 h at 24 °C with 20 μL of MTT (4 mg/mL in distilled water) to determine the cell viability. Supernatant from each well was carefully removed leaving behind formazan crystals. Colored formazan crystals were dissolved in 100 μL of DMSO by setting those aside for 1 h to ensure complete dissolution. Cell viability was estimated by measuring absorbance at 540 nm using microplate reader and percentage growth inhibition was calculated.
As to `CCC[CH2][Sn]([CH2]CCC)([CH2]CCC)[O]C(=O)/C=C\C(=O)Nc1ccc(C(=O)OCC)cc1` [Ch-431, ethyl (Z)-4-(4-oxo-4-((tributylstannyl)oxy)but-2-enamido)benzoate], the “Fold higher potency than Ch-409” value is given as 12.23 fold.

In the case of `CCC[CH2][Sn]([CH2]CCC)([CH2]CCC)[O]C(=O)/C=C\C(=O)NC1CCCCC1` [Ch-442, tributylstannyl (Z)-4-(cyclohexylamino)-4-oxobut-2-enoate], the “Fold higher potency than Ch-409” value was 10.84 fold and the “Fold lower potency compared with Ch-431” value worked out at 1.12 fold.

As for `CCC[CH2][Sn]([CH2]CCC)([CH2]CCC)[O]C(=O)CCC(=O)Nc1ccc(C(=O)[O][Sn]([CH2]CCC)([CH2]CCC)[CH2]CCC)cc1` [Ch-448, tributylstannyl 4-(4-oxo-4-((tributylstannyl)oxy)butanamido)benzoate], the “Fold lower potency compared with Ch-431” value is recorded as 7.38 fold.

For `CCC[CH2][Sn]([CH2]CCC)([CH2]CCC)[O]C(=O)c1ccccc1C(=O)Nc1cccc2ccccc12` [Ch-450, tributylstannyl 2-(naphthalene-1-ylcarbamoyl)benzoate], the “Fold lower potency compared with Ch-431” value was 4.62 fold.

With `CCC[CH2][Sn]([CH2]CCC)([CH2]CCC)[O]C(=O)/C=C\C(=O)Nc1ccccc1` [Ch-458, tributylstannyl (Z)-4-oxo-4-(phenylamino)but-2-enoate], the “Fold lower potency compared with Ch-431” value came out at 3.28 fold.

As for `CCC[CH2][Sn]([CH2]CCC)([CH2]CCC)[O]C(=O)/C=C\C(=O)Nc1cccc(C)c1C` [Ch-459, tributylstannyl (Z)-4-((2,3-dimethylphenyl)amino)-4-oxobut-2-enoate], the “Fold lower potency compared with Ch-431” value was 4.14 fold.

Source of the values: PMC5381078, “Carboxylate derivatives of tributyltin (IV) complexes as anticancer and antileishmanial agents” (DARU Journal of Pharmaceutical Sciences, 2017).
